From publication PMC9095613, “Residues 140–142, 199–200, 222–223, and 262 in the Surface Glycoprotein of Subgroup A Avian Leukosis Virus Are the Key Sites Determining Tva Receptor Binding Affinity and Infectivity” (2022)

Tests used:
Tva-HA-Fc [1] = settings: parent: est. 1.0; read off a plot
Tva-HA-Fc [2] = settings: parent: est. 1.0; read off a plot; remark: listed apart in the source

Substance: A-gp85-flag wt (soluble gp85 of ALV-A RSA) R155A
- ratio to parent (Tva-HA-Fc [1]): 0.85

Substance: A-gp85-flag wt (soluble gp85 of ALV-A RSA) K268A
- ratio to parent (Tva-HA-Fc [2]): 0.9

Like-named read-outs stand apart in the source and are kept apart here.
